A mixed list of measured activities; the numbers were collected in NIAID ChemDB.

All rows: whole-cell or culture tests; agent: Mycobacterium tuberculosis

MIC bound comes from a single tested concentration. Inhibition is in % at the dose shown (toxicity tests: loss of growth or viability). Conditions beyond the fields shown may differ between rows. MIC50, MIC90 and the like: level of inhibition, or share of isolates inhibited. ECn is the concentration giving n% inhibition of infection, replication or growth. Blank or dashed fields: not listed here. a–b is a range or a potency band.

SMILES,tested at,endpoint,cells,strain,read by,mutations,result
O=C(O)CN1CCN(CC(=O)O)CC1,12.8 µg/mL,inhibition,,H37Rv,BACTEC,,14%
O=C(c1ccncc1)N1N=C(c2ccco2)CC1(O)C(F)(F)F,,MIC,,RGH104,,,38.46 µM
CC1CCCCN1c1cncc(/C(N)=N/O)n1,,MIC,,Ethionamide-resistant,,,250 µg/mL
C[C@H]1COc2c(N3CCN(C)CC3)c(F)cc3c(=O)c(C(=O)O)cn1c23,,MIC,,2888-3,,,0.5 µg/mL
CC1CCCCN1c1cncc(C(=O)NO)n1,,MIC,,Capreomycin-resistant,,,62.5 µg/mL
CO[C@H]1/C=C/O[C@@]2(C)Oc3c(C)c(O)c4c(=O)c(c5oc6cc(N7CCN(CC(C)C)CC7)cc(=O)c6nc5c4c3=C2O)NC(=O)/C(C)=C\C=C\[C@H](C)[C@H](O)[C@@H](C)[C@@H](O)[C@@H](C)[C@H](OC(C)=O)[C@@H]1C,,MIC,,TN3806,,,>32 µg/mL
Cn1c(NNc2nc(Nc3ccc(F)c(Cl)c3)nc(Nc3ccc(F)c(Cl)c3)n2)nc(-c2ccc(Cl)cc2)c(C#N)c1=O,,EC50,VERO,H37Rv,,,<12.5 µg/mL
O=C(CCC(F)(F)F)N1CC(c2cc(C(F)(F)F)ccn2)C1,,EC50,THP-1,H37Rv,fluorescence,,0.25–0.5 µM
O=[N+]([O-])c1cn2c(n1)OC[C@@H](OCc1ccc(OC(F)(F)F)cc1)C2,,MIC,,H37Rv,,,0.024 µg/mL
CCOC(=O)c1cn(-c2ccccc2)nn1,,MIC,,H37Rv,,,>12.5 µg/mL
Cc1ccc(-n2cc(CS(=O)(=O)C3c4ccccc4-c4ccccc43)nn2)cc1C,,MIC99,,H37Rv,broth dilution,,120 µM
COc1cc(CNC2CC2)ccc1O,,MIC,,H37Ra,,,>25 µg/mL
O=S(=O)(Cc1cn(-c2ccc(Cl)c(Cl)c2)nn1)C1c2ccccc2-c2ccccc21,,MIC99,,H37Rv,broth dilution,,>219 µM
O=C(CCC(F)(F)F)N1CC(c2ccnc(C(F)(F)F)c2)C1,,EC50,THP-1,H37Rv,fluorescence,,0.05–0.25 µM
O=C(c1ccncc1)N1N=C(c2cccs2)CC1(O)C(F)(F)F,,MIC,,RGH103,,,>293 µM
CC1=C(C(=O)Nc2ccccc2Cl)C(c2ccccc2O)C(C(=O)Nc2ccccc2Cl)=C(C)N1,2.5 µg/mL,inhibition,,H37Rv,,,6%
Oc1cccc(CNCCCCCNCc2cccc(O)c2)c1,,MIC,,Sensitive strains,,,6.25 µg/mL
O=c1cc(-c2ccccc2)oc2ccc(I)cc12,,MIC,,H37Rv,,,>12.5 µg/mL
CC1=C(C(=O)Nc2ccc(Cl)cc2)C(c2cccc([N+](=O)[O-])c2)C(C(=O)Nc2ccc(Cl)cc2)=C(C)N1,,EC50,,H37Rv,,,>2.5 µg/mL
Cc1ccc(S(=O)(=O)N/N=C2\C(=O)N(c3ccc(Cl)cc3C)C(=O)C(=O)C2c2nc3ccccc3s2)cc1,,MIC bound,,H37Rv,resazurin,,>6.25 µg/mL
COc1ccccc1NC(=O)C1=C(C)NC(C)=C(C(=O)Nc2ccccc2OC)C1c1ccccc1Cl,,EC50,,H37Rv,,,>2.5 µg/mL
CCCCCCCCC=CCCCCCCCCNCc1ccc(O)c(OC)c1,,MIC,,H37Ra,,,>25 µg/mL
CO[C@H]1/C=C/O[C@@]2(C)Oc3c(C)c(O)c4c(=O)c(c5oc6cc(N7CCN(CC(C)C)CC7)cc(=O)c6nc5c4c3=C2O)NC(=O)/C(C)=C\C=C\[C@H](C)[C@H](O)[C@@H](C)[C@@H](O)[C@@H](C)[C@H](OC(C)=O)[C@@H]1C,,MIC,,29 (rifampicin-resistant),,,4 µg/mL
CC1=C(C(=O)Nc2ccccc2Cl)C(c2ccccc2Cl)C(C(=O)Nc2ccccc2Cl)=C(C)N1,,EC50,,H37Rv,,,>2.5 µg/mL
CC(=O)C(N=Nc1cccc2c1C(=O)c1cccc(Cl)c1C2=O)C(=O)Nc1ccccc1Cl,12.5 µg/mL,inhibition,,H37Rv,BACTEC,,-10%
COc1ccccc1Nc1nc(NNc2nc(-c3ccc(Cl)cc3)c(C#N)c(=O)n2C)nc(Nc2ccccc2OC)n1,,MIC,,H37Rv,,,>12.5 µg/mL
Nc1nc(N)nc(-c2ccccc2-n2nnc3ccccc3c2=O)n1,12.5 µg/mL,inhibition,,H37Rv,BACTEC,,13%
O=C(NCc1ccc(N2CCN(Cc3ccccc3)CC2)nc1)c1ccc([N+](=O)[O-])o1,,MIC,,UT18,,,0.012 µg/mL
O=C1c2c(O)ccc(O)c2C(=O)c2c(NCCNCCO)ccc(NCCNCCO)c21,6.25 µg/mL,inhibition,,H37Rv,,,19%
Cc1ccc(C2=NN(C(=O)c3ccncc3)C(O)(C(F)(F)F)C2)cc1,,MIC,,RGH103,,,287 µM
Clc1ccc(-n2cc(CSC3c4ccccc4-c4ccccc43)nn2)cc1Cl,,MIC99,,Specimen 192,broth dilution,,>236 µM
NC(=O)C1=NOC(C(N)=O)C1[C@@H]1O[C@H](CO)[C@@H](O)[C@H]1O,,MIC bound,,H37Rv,BACTEC,,>12.5 µg/mL
O=C(/C=C/c1ccccc1)c1ccc(Br)cc1O,,MIC,,H37Rv,,,>12.5 µg/mL
CO[C@H]1/C=C/O[C@@]2(C)Oc3c(C)c(O)c4c(O)c(c(/C=N/N5CCN(C)CC5)c(O)c4c3C2=O)NC(=O)/C(C)=C\C=C\[C@H](C)[C@H](O)[C@@H](C)[C@@H](O)[C@@H](C)[C@H](OC(C)=O)[C@@H]1C,,MIC,,H37Rv,,,<0.19 µM
Cn1c(NNc2nc(Nc3ccc(Cl)cc3Cl)nc(Nc3ccc(Cl)cc3Cl)n2)nc(-c2ccc(Cl)cc2)c(C#N)c1=O,,EC50,,H37Rv,,,>12.5 µg/mL
O=c1cc(-c2ccccc2)oc2c(I)cccc12,,MIC,,H37Rv,,,>12.5 µg/mL
CO[C@@H]1C/C=C\C=C\C[C@H](C)[C@@H](O)C[C@@H](O)[C@H](C)[C@H](O)CC(=O)O[C@H]([C@H](C)[C@H](O)/C=C(\C)CC/C=C/C=C/CC(O)CC(C)CCC(=O)O)C[C@H](O)CCC1,,MIC,,CHUV80045776,resazurin / absorbance,katG mutant isoniazid resistant,1.7 µg/mL
Nc1nc(N)c2nc3c(nc2n1)C(=O)N(c1ccc(C(=O)NC(CCC(=O)O)C(=O)O)cc1)C3,,MIC bound,,H37Rv,BACTEC,,>12.5 µg/mL
Cn1c(NNc2nc(Nc3ccc(Cl)cc3)nc(Nc3ccc(Cl)cc3)n2)nc(-c2ccccc2)c(C#N)c1=O,12.5 µg/mL,inhibition,,H37Rv,,,0%
CCCCCCCCCCCCCCCCNCc1ccncc1,,MIC,,H37Ra,,,<25 µg/mL
CCCc1ccc2oc(-c3ccc(O)c(OC)c3)c(C)c2c1,,MIC,,Clinical isolate 13 638,resazurin / absorbance,,7.8 µg/mL
CC1CCCCN1c1cncc(C(N)=O)n1,,MIC,,Isoniazid-resistant,,,500 µg/mL
Cn1c(NNc2nc(Nc3cccc(Cl)c3)nc(Nc3cccc(Cl)c3)n2)nc(-c2ccccc2)c(C#N)c1=O,,EC50,VERO,H37Rv,,,<12.5 µg/mL
Cc1ccc(NC(=O)C(=NNC(N)=O)c2c(O)c3ccccc3[nH]c2=O)cc1,,MIC bound,,H37Rv,BACTEC,,>12.5 µg/mL
O=C(c1cn(-c2ccccc2)nn1)c1ccco1,,MIC,,H37Rv,,,>12.5 µg/mL
O=C(/C=C/c1ccccc1)c1ccc(Cl)cc1O,,MIC,,H37Rv,,,>12.5 µg/mL
NC(=O)c1cncc(-n2ccnc2)n1,,MIC,,SP 607,,,1000 µg/mL
O=C(c1ccc2ccccc2c1)c1cn(-c2ccc(Cl)cc2)nn1,12.5 µg/mL,inhibition,,H37Rv,,,0%
CC1(c2ccc(F)cc2)CN(C(=O)CCC(F)(F)F)C1,,EC50,THP-1,H37Rv,fluorescence,,<0.05 µM
O=C1NN2CCN=C2c2ccccc21,12.5 µg/mL,inhibition,,H37Rv,BACTEC,,0%
O=C(NCc1ccc(N2CCN(Cc3ccccc3)CC2)cc1)c1ccc([N+](=O)[O-])o1,,MIC,,UT15,,,0.012 µg/mL
C=C(C)/C=C/[C@]12C[C@H](C)[C@H]3CC[C@](C)(NC=O)[C@@H](CC[C@H]1C)[C@@H]32,16 µg/mL,inhibition,,H37Rv,,,30%
C=C1C(=O)O[C@@H]2C[C@@]3(C)C=CC(=O)C(=C)[C@@H]3C[C@H]12,,MIC,,H37Rv,BACTEC,,≥12.5 µg/mL
C/C=C/c1ccc2oc(-c3ccc(O)c(OC)c3)c(C)c2c1,,MIC,,H37Rv,resazurin / absorbance,,1.9 µg/mL
Cn1c(NNc2nc(Nc3cccc([N+](=O)[O-])c3)nc(Nc3cccc([N+](=O)[O-])c3)n2)nc(-c2ccccc2)c(C#N)c1=O,12.5 µg/mL,inhibition,,H37Rv,,,58%
CCCCCCCCC=CCCCCCCCCNCc1ccncc1,,MIC,,Clinical isolates MDR,,,50 µg/mL
O=C1C2=C(OCCO2)C(=O)C2=C1OCO2,12.5 µg/mL,inhibition,,H37Rv,BACTEC,,0%
O=c1cc(-c2ccccc2)oc2ccc(Cl)cc12,,MIC,,H37Rv,,,>12.5 µg/mL
NC(Cc1cnc[nH]1)C(=O)NC(CO)C(=O)O,,MIC,,H37Rv,BACTEC,,≥12.8 µg/mL
O=C(CCC(F)(F)F)N1CC(c2cccc(OC(F)(F)F)c2)C1,,EC50,THP-1,H37Rv,fluorescence,,<0.05 µM
Oc1ccc([C@H](O)[C@H]2CCCCN2)cc1O,,MIC bound,,H37Rv,,,>6.25 µg/mL
Cn1c(NNc2nc(Nc3cc(Cl)cc(Cl)c3)nc(Nc3cc(Cl)cc(Cl)c3)n2)nc(-c2ccccc2)c(C#N)c1=O,,MIC,VERO,H37Rv,,,>12.5 µg/mL
CCOc1ccc2nc3cc(N=Nc4ccc(N)nc4N)ccc3c(N)c2c1,12.5 µg/mL,inhibition,,H37Rv,BACTEC,,60%
C/C=C/c1ccc2oc(-c3ccc(OC)c(OC)c3)c(C)c2c1,,MIC,,Clinical isolate 4851,resazurin / absorbance,,7.8 µg/mL
CCCCCCCCNC(CC(=O)OCC)c1ccc(F)cc1,,MIC,,H37Ra,,,>25 µg/mL
CC1CCCCN1c1cncc(C(=O)NN)n1,,MIC,,Ethionamide-resistant,,,125 µg/mL
CCCCCCCCCCCCCCCCNCc1ccc(O)c(OC)c1,,MIC,,Sensitive strains,,,3.12 µg/mL
O=S1(=O)CS(=O)(=O)OCCCCCO1,,MIC bound,,H37Rv,BACTEC,,>12.5 µg/mL
CC1CN(c2cncc(C(N)=S)n2)CC(C)O1,,MIC,,Ethionamide-resistant,,,62.5 µg/mL
CCCCCCCCCCCCCCCCNCc1cccnc1,,MIC,,Clinical isolates MDR,,,3.12 µg/mL
COc1ccc(Nc2nc(NNc3nc(-c4ccccc4)c(C#N)c(=O)n3C)nc(Nc3ccc(OC)cc3)n2)cc1,12.5 µg/mL,inhibition,,H37Rv,,,71%
CO[C@H]1/C=C/O[C@@]2(C)Oc3c(C)c(O)c4c(O)c(c5c(c4c3C2=O)NC2(CCN(CC(C)C)CC2)N=5)=NC(=O)/C(C)=C\C=C\[C@H](C)[C@H](O)[C@@H](C)[C@@H](O)[C@@H](C)[C@H](OC(C)=O)[C@@H]1C,,MIC,,2218 (rifampicin-susceptible),,,0.025 µg/mL
O=C(c1cn(-c2ccccc2)nn1)c1ccc(Cl)cc1Cl,12.5 µg/mL,inhibition,,H37Rv,,,49%
N#CCC(=O)N/N=C1\C(=O)NC(=O)C(=O)C1c1nc2ccccc2s1,12.5 µg/mL,inhibition,,H37Rv,BACTEC,,-2%
O=C(c1ccncc1)N1N=C(c2cccs2)CC1(O)C(Cl)(Cl)Cl,,MIC,,RGH101,,,>257 µM
Clc1ccc(-n2cc(CNC3c4ccccc4-c4ccccc43)nn2)cc1,,MIC99,,Specimen 192,broth dilution,,268 µM
Cc1csc(N=Nc2ccc(N(C)C)cc2)[n+]1[O-],,MIC,,H37Rv,resazurin,,6.25 µg/mL
COC(=O)c1cncc(N2CC(C)OC(C)C2)n1,,MIC,,Isoniazid-resistant,,,62.5 µg/mL
COC1=C(OC)C(=O)C(SCCCCCCC2CCCCC2)=C(C)C1=O,6.25 µg/mL,inhibition,,H37Rv,resazurin,,27%
Cn1c(NNc2nc(NCc3ccco3)nc(NCc3ccco3)n2)nc(-c2ccccc2)c(C#N)c1=O,,MIC,,H37Rv,,,>12.5 µg/mL
Cc1nc2c(sc3ccccc3n2C)c2nc3c(sc4ccccc4n3C)c(C)c12,12.5 µg/mL,inhibition,,H37Rv,BACTEC,,-4%
S=C(NCN1CCOCC1)c1cncc(-n2ccnc2)n1,,MIC,,H37Rv,,,500 µg/mL
O=S(=O)(O)CCN(CCO)CCO,12.5 µg/mL,inhibition,,H37Rv,BACTEC,,0%
NC(=O)c1cncc(-n2cncn2)n1,,MIC,,Isoniazid-resistant,,,500 µg/mL

The last 11 rows once more:

SMILES	tested at	endpoint	cells	strain	read by	mutations	result
N#CCC(=O)N/N=C1\C(=O)NC(=O)C(=O)C1c1nc2ccccc2s1	12.5 µg/mL	inhibition		H37Rv	BACTEC		-2%
O=C(c1ccncc1)N1N=C(c2cccs2)CC1(O)C(Cl)(Cl)Cl		MIC		RGH101			>257 µM
Clc1ccc(-n2cc(CNC3c4ccccc4-c4ccccc43)nn2)cc1		MIC99		Specimen 192	broth dilution		268 µM
Cc1csc(N=Nc2ccc(N(C)C)cc2)[n+]1[O-]		MIC		H37Rv	resazurin		6.25 µg/mL
COC(=O)c1cncc(N2CC(C)OC(C)C2)n1		MIC		Isoniazid-resistant			62.5 µg/mL
COC1=C(OC)C(=O)C(SCCCCCCC2CCCCC2)=C(C)C1=O	6.25 µg/mL	inhibition		H37Rv	resazurin		27%
Cn1c(NNc2nc(NCc3ccco3)nc(NCc3ccco3)n2)nc(-c2ccccc2)c(C#N)c1=O		MIC		H37Rv			>12.5 µg/mL
Cc1nc2c(sc3ccccc3n2C)c2nc3c(sc4ccccc4n3C)c(C)c12	12.5 µg/mL	inhibition		H37Rv	BACTEC		-4%
S=C(NCN1CCOCC1)c1cncc(-n2ccnc2)n1		MIC		H37Rv			500 µg/mL
O=S(=O)(O)CCN(CCO)CCO	12.5 µg/mL	inhibition		H37Rv	BACTEC		0%
NC(=O)c1cncc(-n2cncn2)n1		MIC		Isoniazid-resistant			500 µg/mL